# Percent effect of library compounds

Source: ChEMBL document CHEMBL3988442, “University of Dundee, Small-Polar-MMV Screening Library” (2021).

A: 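Whole-cell growth test on Mycobacterium tuberculosis, read after 3 days in glucose-containing 7H9 medium; the read-out is not stated. Compounds at 500 µM. The record gives no direction; compounds that gave an IC50 in retests scored well above the rest, so higher reads as more growth inhibition. Of about 18,000 compounds tested this way, about 1,400 (7.9%) reached 50% or more in at least one test.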
B: 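Phenotypic screen: M. tuberculosis growth, cholesterol and DPPC medium, 4 days; the read-out is not stated. Concentration: 500 µM. Direction is inferred from retests: higher values go with more growth inhibition. About 18,000 compounds were tested under these conditions; 5% (about 900) showed 50% or more at least once.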

The filed quantity is “Percent Effect” (%). The controls that fix the scale are not given in the record; negative values are as filed. The entries come from a sample that favours strong results.

Result for CC(C)(C)CC(=O)N1CCCCC1CN (stereo not drawn) was A: -0.4258%; B: 7.001%.
Result for O=C(NC1CCNCC1)c1cc2ccccc2o1 was B: 2.978%.
Result for COc1ccc(C(C)CO)cc1 (stereo not drawn) was B: 55.12%.
Result for CCC(C)N(C)CCNC(=O)NC1CC1 (stereo not drawn) was B: -17.13%.
Result for Cc1nn(CCC#N)c(C)c1Cl was A: 19.42%.
Result for CC1c2ccsc2CCN1CCS(C)(=O)=O (stereo not drawn) was A: 25.17%; B: 43.11%.
Result for COc1cccc(CN(C)CC2CCS(=O)(=O)C2)c1 (stereo not drawn) was B: 4.645%.
Result for NCCC(=O)N1CCCC(CCc2ccc(F)cc2)C1 (stereo not drawn) was A: 71.72%; B: 67.15%.
Result for c1cc2c(cc1CNc1nnc(C3CC3)o1)OCCO2 was A: 70.27%; B: 69.69%.
Result for NC(=O)CN1CCN(Cc2ccc3c(c2)CCO3)CC1 was A: 8.682%; B: 0.04036%.
Result for Cc1cnccc1NCCNC(=O)c1cccc(N)n1 was B: 12.69%.
Result for COC(=O)c1ccc(NC(=O)CCn2cnnn2)cc1 was A: 14.44%.
Result for CNC(=O)CCNCc1ccc(Br)cc1 was A: 37.23%.
Result for CN(Cc1ccsc1)CC(O)COCc1ccco1 (stereo not drawn) was A: 45.64%; B: 49.4%.
Result for COc1ccc(NC(=O)N2CCCC2)c(C)n1 was A: -4.274%.
Result for O=C(NCCN1CCCC1)c1ccc2ccccc2n1 was A: 80.38%; B: 51.07%.
Result for O=C(Nc1c[nH]nc1C1CCCNC1)C1CCCC1 (stereo not drawn) was A: 5.391%.
Result for Cc1c(C(=O)NCCc2ccsc2)cnn1C was A: 18.56%.
Result for Cc1ccc(OCc2csc(CS(C)(=O)=O)n2)nc1 was A: 5.174%; B: -6.258%.
Result for COc1cc(CN)cc(Br)c1OC was A: 58.81%.
Result for Cc1nc(NC(=O)CNC(=O)c2ccoc2)sc1C was B: -11.66%.
Result for CC(C)CC1CCN(S(N)(=O)=O)C1 (stereo not drawn) was A: 51.74%; B: 47.06%.
Result for COC(=O)[C@H](C)NC(=O)c1noc2c1CCCCC2 was A: 62.66%; B: 80.16%.
Result for Cc1cnc(NC(=O)CCOC(C)C)[nH]1 was A: 9.655%.

For reference, 2 entries once more:

* Cc1cnccc1NCCNC(=O)c1cccc(N)n1 : B: 12.69%
* Cc1c(C(=O)NCCc2ccsc2)cnn1C : A: 18.56%